Legend:
[1] = biological target: authentic AIV antigen / virus of influenza strain A/Turkey/Wisconsin/68 (H5N9) (influenza A virus A/Turkey/Wisconsin/68 (H5N9)); experiment: cell-based or functional assay
[2] = biological target: authentic AIV antigen / virus of influenza strain A/Turkey/Wisconsin/68 (H5N9) (influenza A virus A/Turkey/Wisconsin/68 (H5N9))
[3] = biological target: authentic influenza antigen H5N9, strain A/Turkey/Wisconsin/68 (influenza A virus A/Turkey/Wisconsin/68 (H5N9))

Row | Binder | HI titer [1] | VNT titer [1] | ELISA titer (NANOBODY concentration giving extinction 0.2) [2] | Extinction at 450 nm in ELISA (extinction at 450 nm) [3]
1 | IV144 (VHH) VHH: QVQLQQSGGGLVQAGGSLRLSCAASGNIISFNPMGWHRQAPGKQRELVASITSGGSISYVDSVKGRFTISRDSAKNTIYLQMNSLKPEDTAVYFCAGEGPRRRGSTWYTDTYWGQGTQVTVSS | > 1000 µg/mL | > 50 µg/mL | 31.6 ng/mL | –
2 | IV126 (VHH) VHH: QVQLQESGGGLVQPGGSLRLSCAASRTDISFNPMGWYRQAPGKQRELVATMTSGGTTGYADSVKGRFTISRDNPKNTLYLQMNSLEPEDTAVYYCHARGPRYATTGWFTDDYWGQGTQVTVSS | – | – | – | 0.33
3 | IV122 (VHH) VHH: QVQLQQSGGGLVQPGGSLRLSCAASRSDFAFNPMGWYRQAPGKQRELVAVLTTGGTTNYADSVKGRFTISRDNARNTVYLQMNSLKPEDTAVYYCYARGPRKAPTGWITDDYWGQGTQVTVSS | – | – | – | 0.129
4 | IV132 (VHH) VHH: QVQLQESGGGLVQPGGSLRLSCAASVSGFIFNPMGWYRQARGKQREEVAVLTTGGTTKYADSVKDRFTISRDNARNTVDLQMNSLKPEDTAVYYCYARGPRHVPTGWITDDYWGQGTQVTVSS | – | – | – | 0.113
5 | IV131 (VHH) VHH: QVQLQQSGGGLVQAGGSLRLSCAASGSGFSFNPMGWYRQAPGKQRELVASITSGGTTNYVDSVKGRFTISRGNAKNTVYLQMNSLKPEDTAVYYCAAEGPRRRGSTWYTDNYWGQGTQVTVSS | > 1000 µg/mL | > 50 µg/mL | 19.5 ng/mL | –
6 | IV134 (VHH) VHH: QVQLQESGGGLVQAGGSLRLSCAASGSGFSFNPMGWYRQAPGKQRELVASITSGGTTNYVDSVKGRFTISRGNAKNTVYLQMNSLKPEDTAVYYCAAEGPRRRGSTWYTDNYWGQGTQVTVSS | – | – | – | 0.194
7 | IV127 (VHH) VHH: QVQLQESGGGLVQPGGSLRLSCAASRSGFVFNPMGWYRQAPGKQRELVAVITASLTTNYADSVKGRFTISRDNTGNTAYLQMNSLKPEDTAVYYCYGRGPRKAPTGWITDDYWGQGTQVTVSS | – | – | – | 0.443
8 | IV133 (VHH) VHH: QVQLQQSGGGLVQPGGSLRLSCAASSSGFSFNPMGWYRQAPGKQRELVATMTSGGTTNYADSVKGRFTISRDNAKTTVYLQMNSLKPEDTAVYYCNARGPRRATTGWITDDYWGQGTQVTVSS | > 1000 µg/mL | > 50 µg/mL | 29.4 ng/mL | –
9 | IV136 (VHH) VHH: QVQLQESGGGLVQPGGSLRLSCAASRSGFSFNPMGWYRQAPGKQRELVATITSGGTTNYADSVKGRFTISTDNAKTTVYLQMNSLKPEDTAVYYCNGRGPRRATTGWITDDYWGQGTQVTVSS | – | – | – | 0.372
10 | IV156 (VHH) VHH: QVQLQQSGGGLVQPGGSLRLSCAASRSGFSFNPMGWYRQAPGKQRELVATITSGGTTNYADSVKGRFTISTDNAKTTVFLQMNSLKPEDTAVYYCNGRGPRRGTAGWFTDDYWGQGTQVTVSS | > 1000 µg/mL | > 50 µg/mL | 14.4 ng/mL | –
11 | IV123 (VHH) VHH: QVQLQESGGGLVQPGGSLRLSCAASRSGFSFNPMGWYRQAPGKQRELVATITSGGTTNYADSVKGRFTISTDNAKTTVFLQMNSLKPEDTAVYYCNARGPRRGTAGWITDDYWGQGTQVTVSS | – | – | – | 0.188
12 | IV135 (VHH) VHH: QVQLQQSGGGLVQPGGSLRLSCAASRGDISFNPMGWYRQAPGKQRELVATITNGGTTNYADSVKGRFTISRDNAETAVYLQMNSLKPEDTAVYYCNARGPRHATTGWYTDDYWGQGTQVTVSS | – | – | – | 0.169

— patent US20200123233A1
